Series [1] concerns HepG2 cells. Nature of the series: Resazurin-based in vitro cytotoxicity with HepG2 cells. It is filed as cell-based, human. As to conditions: selectivity index HepG2 vs P.f.NF54. Here is the method: The HepG2 cells were washed with DPBS (Dulbecco’s PBS without calcium and magnesium, Gibco, Cat #21600-044) and trypsinized with trypsin solution in DPBS. Trypsinization was stopped by adding culture medium, and after being stained with Trypan Blue (SORS Ukraine) cells were counted using a counting chamber (Hausser Scientific, Cat #3500). The cell suspension was placed in a falcon tube containing plating medium DMEM/High glucose with 1% fetal bovine serum, 100 units/mL penicillin, and 100 µg/mL streptomycin. Cells at a density of 250,000 cells/mL were seeded in sterile 384-well plates (Greiner Bio-One, Cat #781091) in a volume of […] and incubated at 37 °C and 5% CO2. Serial dilutions of ten 3-fold dilution steps of test and reference compounds covering a range from 100.0 to 0.005 µM were added to the wells, followed by incubation at 37 °C and 5% CO2 for 48 h. Then, resazurin (50 µM final concentration) was added and plates were incubated for another 3 h. The plates were read with a SpectraMax microplate reader (Molecular Devices Cooperation, Sunnyvale, CA, USA)) using an extinction wavelength of 555 nm and an emission wavelength of 570 nm. IC50 values were calculated using GraphPad Prism 9.0 charting software. Doxorubicin (Sigma Aldrich D1515) was used as control.
A general note: Resazurin is reduced to fluorescent resorufin, in cell work by metabolically active cells.

Series [2] relates to L-6 cells. Nature of the series: Resazurin-based in vitro cytotoxicity with L-6 cells. Format: cell-based, rat. As to conditions: selectivity index L-6 vs P.f.NF54. Here is the method: Serial drug dilutions of eleven 3-fold dilution steps covering a range from 100 to 0.002 µg/mL were prepared. After 70 h of incubation, the plates were inspected under an inverted microscope to assure growth of the controls and sterile conditions. […] The plates were read with a Spectramax Gemini XS microplate fluorometer (Molecular Devices Cooperation, Sunnyvale, CA, USA) using an excitation wavelength of 536 nm and an emission wavelength of 588 nm. IC50 values were calculated by linear regression from the sigmoidal dose–inhibition curves using SoftmaxPro software Version 8.2.1 (Molecular Devices Cooperation, Sunnyvale, CA, USA). Podophyllotoxin (Sigma P4405) was used as control.

As for `CN1CCN(C(=O)c2cccc(C(F)(F)F)c2Oc2ccc(F)cc2)CC1` [Compound 49, [2-(4-Fluorophenoxy)-3-(trifluoromethyl)phenyl](4-methylpiperazin-1-yl)methanon], the “S.I. = IC50 (Cyt. HepG2)/IC50 (P.f.NF54)” value in series [1] was above 1.81. Further, the “S.I. = IC50 (Cyt. L-6)/ IC50 (P.f.NF54)” value in series [2] was 2.48.
On to `O=C(Nc1ccc(N2CCOCC2)cc1)c1cccc(C(F)(F)F)c1Oc1ccc(F)cc1` [Compound 33, 2-(4-Fluorophenoxy)-N-[4-(morpholin-4-yl)phenyl]-3-(trifluoromethyl)benzamide], for which the “S.I. = IC50 (Cyt. HepG2)/IC50 (P.f.NF54)” value in series [1] is recorded as 5.18. Further, the “S.I. = IC50 (Cyt. L-6)/ IC50 (P.f.NF54)” value in series [2] is listed as 28.7.
Turning to `CC(=O)Nc1ccc(Oc2c(C(=O)Nc3ccc(N4CCNCC4)cc3)cccc2C(F)(F)F)cc1` [Compound 63, 2-(4-Acetamidophenoxy)-N-[4-(piperazin-1-yl)phenyl]-3-(trifluoromethyl)benzamide], the “S.I. = IC50 (Cyt. L-6)/ IC50 (P.f.NF54)” value in series [2] is listed as 7.24.
Take `CC(C)(C)OC(=O)N1CCN(C(=O)c2cccc(C(F)(F)F)c2Oc2ccc(F)cc2)CC1` [Compound 50, tert-Butyl-4-[2-(4-fluorophenoxy)-3-(trifluoromethyl)benzoyl]piperazine-1-carboxylate]: the “S.I. = IC50 (Cyt. HepG2)/IC50 (P.f.NF54)” value in series [1] stood at 0.68. The “S.I. = IC50 (Cyt. L-6)/ IC50 (P.f.NF54)” value in series [2] was found to be 0.80.
As for `CCN(CC)CCCC(C)Nc1ccnc2cc(Cl)ccc12` (stereo not drawn) [CQ, chloroquine, reference compound], the “S.I. = IC50 (Cyt. L-6)/ IC50 (P.f.NF54)” value in series [2] stood at 9672.
As to `O=C(Nc1cccc(N2CCNCC2)c1)c1cccc(C(F)(F)F)c1Oc1ccc(F)cc1` [Compound 56, 2-(4-Fluorophenoxy)-N-[3-(piperazin-1-yl)phenyl]-3-(trifluoromethyl)benzamide], the “S.I. = IC50 (Cyt. HepG2)/IC50 (P.f.NF54)” value in series [1] amounted to 2.33. Also, the “S.I. = IC50 (Cyt. L-6)/ IC50 (P.f.NF54)” value in series [2] worked out at 6.27.
In the same order, the values of `O=C(Nc1ccccc1N1CCOCC1)c1cccc(C(F)(F)F)c1Oc1ccc(F)cc1` [Compound 32, 2-(4-Fluorophenoxy)-N-[2-(morpholin-4-yl)phenyl]-3-(trifluoromethyl)benzamide] are above 32.9 and 53.0.
As to `CC(=O)Nc1ccc(Oc2c(C(=O)Nc3ccccc3N3CCNCC3)cccc2C(F)(F)F)cc1` [Compound 54, 2-(4-Acetamidophenoxy)-N-[2-(piperazin-1-yl)phenyl]-3-(trifluoromethyl) benzamide], the “S.I. = IC50 (Cyt. L-6)/ IC50 (P.f.NF54)” value in series [2] came to 1.19.
Same read-out and setting: next, `CN(C)c1ccccc1NC(=O)c1cccc(C(F)(F)F)c1Oc1ccc(F)cc1` [Compound 35, N-[2-(Dimethylamino)phenyl]-2-(4-fluorophenoxy)-3-(trifluoromethyl)benzamide]: 5.70.
In the case of `O=C(Nc1ccc(N2CCNCC2)cc1)c1cccc(C(F)(F)F)c1Oc1ccc(F)cc1` [Compound 57, 2-(4-Fluorophenoxy)-N-[4-(piperazin-1-yl)phenyl]-3-(trifluoromethyl)benzamide], the “S.I. = IC50 (Cyt. HepG2)/IC50 (P.f.NF54)” value in series [1] is reported as 3.30. Also, the “S.I. = IC50 (Cyt. L-6)/ IC50 (P.f.NF54)” value in series [2] amounted to 11.9.
In the same order, the values of `O=C(Nc1ccc(N2CCNCC2)cc1)c1ccccc1Oc1ccc(F)cc1` [Compound 59, 2-(4-Fluorophenoxy)-N-[4-(piperazin-1-yl)phenyl]benzamide] are 19.1 and 12.5.
For the compound `O=C(c1cccc(C(F)(F)F)c1Oc1ccc(F)cc1)N1CCNCC1` [Compound 52, [2-(4-Fluorophenoxy)-3-(trifluoromethyl)phenyl](piperazin-1-yl)methanon], in series [1], the “S.I. = IC50 (Cyt. HepG2)/IC50 (P.f.NF54)” value is above 4.32. Moreover, the “S.I. = IC50 (Cyt. L-6)/ IC50 (P.f.NF54)” value in series [2] worked out at 5.85.
For `O=C(Nc1ccc(N2CCNCC2)cc1)c1cccc([N+](=O)[O-])c1Oc1ccc(F)cc1` [Compound 61, 2-(4-Fluorophenoxy)-3-nitro-N-[4-(piperazin-1-yl)phenyl]benzamide], the “S.I. = IC50 (Cyt. HepG2)/IC50 (P.f.NF54)” value in series [1] was 7.27. In addition, in series [2], the “S.I. = IC50 (Cyt. L-6)/ IC50 (P.f.NF54)” value is on record as 10.7.
In the same order, the values of `CN(C)c1ccc(NC(=O)c2cccc(C(F)(F)F)c2Oc2ccc(F)cc2)cc1` [Compound 36, N-[4-(Dimethylamino)phenyl]-2-(4-fluorophenoxy)-3-(trifluoromethyl)benzamide] are above 13.2 and 31.5.
As to `O=C(Nc1ccccc1N1CCNCC1)c1cccc(C(F)(F)F)c1Sc1ccc(F)cc1` [Compound 55, 2-[(4-Fluorophenyl)sulfanyl]-N-[2-(piperazin-1-yl)phenyl]-3-(trifluoromethyl)benz-amide], in series [1], the “S.I. = IC50 (Cyt. HepG2)/IC50 (P.f.NF54)” value amounted to 6.65. Besides, the “S.I. = IC50 (Cyt. L-6)/ IC50 (P.f.NF54)” value in series [2] stood at 10.2.
Regarding `O=C(Nc1ccc(N2CCNCC2)cc1)c1cccc(C(F)(F)F)c1Sc1ccc(F)cc1` [Compound 62, 2-[(4-Fluorophenyl)sulfanyl]-N-[4-(piperazin-1-yl)phenyl]-3-(trifluoromethyl)benz-amide], in series [1], the “S.I. = IC50 (Cyt. HepG2)/IC50 (P.f.NF54)” value stood at 5.59. For the same compound, the “S.I. = IC50 (Cyt. L-6)/ IC50 (P.f.NF54)” value in series [2] was 7.88.
The corresponding values for “2-(4-Fluorophenoxy)-N-[4-(pyrrolidin-4-yl)phenyl]-3-(trifluoromethyl)benzamide [Compound 34]” are 23.7 and 110.
In the same order, the values of `O=C(Nc1ccc(N2CCNCC2)cc1)c1cccc(C(F)(F)F)c1Oc1ccccc1` [Compound 58, 2-Phenoxy-N-[4-(piperazin-1-yl)phenyl]-3-(trifluoromethyl)benzamide] are 1.52 and 6.79.
The corresponding values for `O=C(Nc1ccccc1N1CCNCC1)c1cccc(C(F)(F)F)c1Oc1ccc(F)cc1` [Compound 53, 2-(4-Fluorophenoxy)-N-[2-(piperazin-1-yl)phenyl]-3-(trifluoromethyl)benzamide] are 3.94 and 13.0.
`O=C(Nc1ccc(N2CCNCC2)cc1)c1cccc(F)c1Oc1ccc(F)cc1` [Compound 60, 3-Fluoro-2-(4-fluorophenoxy)-N-[4-(piperazin-1-yl)phenyl]benzamide]: the “S.I. = IC50 (Cyt. HepG2)/IC50 (P.f.NF54)” value in series [1] was 5.57. Besides, the “S.I. = IC50 (Cyt. L-6)/ IC50 (P.f.NF54)” value in series [2] is 8.68.
The corresponding values for `O=C(Nc1ccc(N2CCNCC2)cc1)c1cccc(C(F)(F)F)c1` [Compound 66, N-[4-(Piperazin-1-yl)phenyl]-3-(trifluoromethyl)benzamide] are 4.55 and 16.0.
The corresponding values for `Nc1cccc(C(=O)Nc2ccc(N3CCNCC3)cc2)c1Oc1ccc(F)cc1` [Compound 65, 3-Amino-2-(4-fluorophenoxy)-N-[4-(piperazin-1-yl)phenyl]benzamide] are above 14.3 and 22.4.
For `CN1CCN(c2ccccc2NC(=O)c2cccc(C(F)(F)F)c2Oc2ccc(F)cc2)CC1` [Compound 31, 2-(4-Fluorophenoxy)-N-[2-(4-methylpiperazin-1-yl)phenyl]-3-(trifluoromethyl)benzamide], the “S.I. = IC50 (Cyt. L-6)/ IC50 (P.f.NF54)” value in series [2] is given as 8.59.
Regarding `O=C(c1cccc(C(F)(F)F)c1Oc1ccc(F)cc1)N1CCOCC1` [Compound 51, [2-(4-Fluorophenoxy)-3-(trifluoromethyl)phenyl](morpholin-4-yl)methanon], in series [1], the “S.I. = IC50 (Cyt. HepG2)/IC50 (P.f.NF54)” value is above 1.23. In addition, the “S.I. = IC50 (Cyt. L-6)/ IC50 (P.f.NF54)” value in series [2] is listed as 1.89.
In the same order, the values of `O=C(Nc1ccc(N2CCNCC2)cc1)c1ccccc1Oc1ccccc1` [Compound 64, 2-Phenoxy-N-[4-(piperazin-1-yl)phenyl]benzamide] are 5.28 and 17.4.

The values are drawn from publication PMC12298624, “Anti-Infective Properties, Cytotoxicity, and In Silico ADME Parameters of Novel 4′-(Piperazin-1-yl)benzanilides” (Pharmaceuticals, 2025).
